A mixed list of measured activities; the numbers were collected in NIAID ChemDB.

Common to all: tests on isolated targets; agent: HIV-1; protein: Reverse transcriptase; endpoint: fold resistance

Fold resistance: result on the changed form divided by that on wild type. An empty or dashed field is not shown. Two numbers with a dash give a range or band. Conditions beyond the fields shown may differ between rows.

CCN1c2ncc(CCOc3ccc(C(=O)NCC(CC)(CC)C(=O)O)cc3C)cc2C(=O)N(C)c2cccnc21 ; strain: IIIB ; changes: RT-K103N Y181C ; read by: nucleotide incorporation / radiometric ; value: 1
CCc1ccc(-n2c(Br)nnc2SCC(=O)Nc2ccc(C(=O)NCC(OC)OC)cc2Cl)c2ccccc12 ; changes: RT-Y188L ; read by: nucleotide incorporation / radiometric ; value: >2
CCN1c2ncc(CCOc3ccc(C(C)C(=O)O)c4ccccc34)cc2C(=O)N(C)c2cccnc21 ; changes: RT-V106A ; read by: nucleotide incorporation / radiometric ; value: >10
CCN1c2ncc(CCOc3ccc(-c4cc(C)cnc4N)cc3C)cc2C(=O)N(C)c2cccnc21 ; strain: IIIB ; changes: RT-K103N Y181C ; read by: nucleotide incorporation / radiometric ; value: 1
CCN1c2ncc(CCOc3ccc(NS(C)(=O)=O)c4ccccc34)cc2C(=O)N(C)c2ccc(F)nc21 ; changes: RT-Y188L ; read by: nucleotide incorporation / radiometric ; value: 1–10
CCN1c2ncc(CCOc3ccc(C(=O)Nc4cccc(CC(=O)O)c4)cc3C)cc2C(=O)N(C)c2cccnc21 ; strain: IIIB ; changes: RT-K103N Y181C ; read by: nucleotide incorporation / radiometric ; value: 1
CC(C)=CCOc1cc(NC(=S)c2ccsc2C)ccc1Cl ; changes: RT-E138K ; value: 1
Cc1cc(C2CC2)c2ccccc2c1-n1c(Br)nnc1SCC(=O)Nc1ccc(C(=O)O)cc1Cl ; changes: RT-Y188L ; read by: nucleotide incorporation / radiometric ; value: >2
CCN1c2ncc(CCOc3ccc(NC(=O)Nc4ccc(C(=O)O)cc4)cc3C)cc2C(=O)N(C)c2cccnc21 ; strain: IIIB ; changes: RT-K103N Y181C ; read by: nucleotide incorporation / radiometric ; value: 1
C=C1c2cc(CCOc3ccc(NS(C)(=O)=O)c4ccccc34)cnc2N(CC)c2ncccc2N1C ; changes: RT-V106A ; read by: nucleotide incorporation / radiometric ; value: >10
COC(=O)NCCCCNc1nc(Cc2ccccc2)c(C)c(=O)[nH]1 ; changes: RT-V179D ; value: >43.5
COc1ccc2c(C3CC3)ccc(-n3c(Br)nnc3SCC(=O)Nc3ccc(S(=O)(=O)O)cc3Cl)c2c1 ; changes: RT-Y188L ; read by: nucleotide incorporation / radiometric ; value: >1
CCN1c2ncc(CCOc3ccc(-c4ccnc(C)c4)cc3C)cc2C(=O)N(C)c2cccnc21 ; strain: IIIB ; changes: RT-K103N Y181C ; read by: nucleotide incorporation / radiometric ; value: 1
CCc1ccc(-n2c(Br)nnc2SCC(=O)Nc2ccc(C(=O)O)cc2Cl)c2ccccc12 ; changes: RT-Y188L ; read by: nucleotide incorporation / radiometric ; value: >2
CC(C)=CCOc1cc(NC(=S)c2ccoc2C)ccc1Cl ; changes: RT-Y181I ; value: 2.97
CCN1c2ncc(CCOc3ccc(CC(=O)O)c4ccccc34)cc2C(=O)Nc2c(C)ccnc21 ; changes: RT-V106A ; read by: nucleotide incorporation / radiometric ; value: >10
NS(=O)(=O)c1ccc(NC(=O)CSc2nncn2-c2ccc(C3CC3)c3ccccc23)c(Cl)c1 ; changes: RT-Y181C ; read by: nucleotide incorporation / radiometric ; value: >1
CCN1c2ncc(CCOc3ccc(NC(=O)CC(C)(C)C(=O)O)c4ccccc34)cc2C(=O)N(C)c2cccnc21 ; changes: RT-K103N Y181C ; read by: nucleotide incorporation / radiometric ; value: 1–10
O=c1cc(Cc2ccccc2)nc(NCCCCO)[nH]1 ; changes: RT-L100I ; value: 1.28
NS(=O)(=O)c1ccc(NC(=O)CSc2nnc(Br)n2-c2ccc(C3CC3)cc2OC(F)(F)F)c(Cl)c1 ; changes: RT-Y188L ; read by: nucleotide incorporation / radiometric ; value: >2
CCN1c2ncc(CCOc3ccc(C(=O)O)c4c3CCN(C(=O)OC(C)(C)C)C4)cc2C(=O)N(C)c2cccnc21 ; changes: RT-V106A ; read by: nucleotide incorporation / radiometric ; value: >10
Nc1nc2c(ncn2[C@H]2CC[C@@H](COP(=O)(O)OP(=O)(O)OP(=O)(O)O)O2)c(=O)[nH]1 ; changes: RT-Y181C ; read by: nucleotide incorporation ; value: 2.5
CCc1ccc(-n2c(C)nnc2SCC(=O)Nc2ccc(S(N)(=O)=O)cc2Cl)c2c1CCCC2 ; changes: RT-Y188L ; read by: nucleotide incorporation / radiometric ; value: >2
CCN1c2ncc(CCOc3ccc(NC(=O)CC4(C(=O)O)CCCC4)cc3C)cc2C(=O)N(C)c2cccnc21 ; strain: IIIB ; changes: RT-K103N Y181C ; read by: nucleotide incorporation / radiometric ; value: >2
CCN1c2ncc(CCOc3ccc(CCC(=O)O)c4ccccc34)cc2C(=O)N(C)c2ccc(F)nc21 ; changes: RT-Y188L ; read by: nucleotide incorporation / radiometric ; value: >10
CCc1ccc(-n2c(Br)nnc2SCC(=O)Nc2ccc(C(=O)NCC(C)(C)N)cc2Cl)c2ccccc12 ; changes: RT-Y188L ; read by: nucleotide incorporation / radiometric ; value: >1
CCN1c2ncc(CCOc3cccc4c3ccc[n+]4[O-])cc2C(=O)Nc2c(C)cc(Cl)nc21 ; strain: RT -K103N ; changes: RT-K103N ; read by: nucleotide incorporation / radiometric ; value: 2.2
Cc1ccc2ccccc2c1-n1c(Br)nnc1SC(C)C(=O)Nc1ccc(S(N)(=O)=O)cc1Cl ; changes: RT-Y181C ; read by: nucleotide incorporation / radiometric ; value: >1
CCc1cc(NCc2nc3c(C)ccc(C)c3o2)c(=O)[nH]c1C ; changes: RT-Y181H ; read by: nucleotide incorporation ; value: 24.3
CCN1c2ncc(CCOc3ccc(-c4ccc(C(C)C(=O)O)cc4)cc3C)cc2C(=O)N(C)c2cccnc21 ; strain: IIIB ; changes: RT-K103N Y181C ; read by: nucleotide incorporation / radiometric ; value: 1
O=C(CSc1nnc(Br)n1-c1ccc(C2CC2)cc1Cl)Nc1ccc(C(=O)O)cc1Cl ; changes: RT-Y188L ; read by: nucleotide incorporation / radiometric ; value: >2
CCN1c2ncc(CCOc3ccc4cc(CC(=O)NN)ccc4c3)cc2C(=O)N(C)c2cccnc21 ; changes: RT-K103N Y181C ; read by: nucleotide incorporation / radiometric ; value: 1–10
Cc1cc(S(N)(=O)=O)ccc1NC(=O)CSc1nnc(C)n1-c1ccc(C)c2c1CCCC2 ; changes: RT-Y188L ; read by: nucleotide incorporation / radiometric ; value: >2
Cc1c(Cc2ccccc2)nc(NCCCCN)[nH]c1=O ; changes: RT-V106A ; value: >10.3
Cc1cc(C(=O)O)ccc1NC(=O)CSc1nnc(C(F)F)n1-c1ccc(C)c2c1CCCC2 ; changes: RT-Y181C ; read by: nucleotide incorporation / radiometric ; value: >2
CCN1c2ncc(CCOc3ccc(CC(=O)O)c4ccccc34)cc2C(=O)Nc2c(C)cc(Cl)nc21 ; changes: RT-V106A ; read by: nucleotide incorporation / radiometric ; value: 1–10

A second listing of 4 rows from above:

smiles	strain	changes	read by	value
O=C(CSc1nnc(Br)n1-c1ccc(C2CC2)cc1Cl)Nc1ccc(C(=O)O)cc1Cl		RT-Y188L	nucleotide incorporation / radiometric	>2
CCc1cc(NCc2nc3c(C)ccc(C)c3o2)c(=O)[nH]c1C		RT-Y181H	nucleotide incorporation	24.3
CCN1c2ncc(CCOc3ccc(C(C)C(=O)O)c4ccccc34)cc2C(=O)N(C)c2cccnc21		RT-V106A	nucleotide incorporation / radiometric	>10
Cc1cc(C2CC2)c2ccccc2c1-n1c(Br)nnc1SCC(=O)Nc1ccc(C(=O)O)cc1Cl		RT-Y188L	nucleotide incorporation / radiometric	>2